PubChem BioAssay AID1259414 | Drosophila RNAi Screening Center – 2018
Assay: 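Host factors increasing or decreasing Wolbachia levels in cultured fly cells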 (primary screen). System: Drosophila JW18 cells infected with Wolbachia. Knock-down reagent: long dsRNA against Drosophila genes, 0.25 µg dsRNA per well of a 384-well plate. Time to read-out: 5 days. Treatment: cells persistently infected with Wolbachia before knock-down; no added drug. Measured: 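Automated imaging of bacterial rRNA staining divided by host cell count, reported as plate-normalised robust z-score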. Reading the numbers: Wolbachia per cell robust z: higher = more Wolbachia per host cell than the plate typical. Rule for the call: 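Hit when robust z is 1.5 or more, or -1.5 or less, in at least two of three replicates; excludes dsRNAs with several or no targets, genes not expressed in JW18 and well A1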.
The screen tested about 24,000 reagents; shown is an unselected part of those with a known target gene and a result. In the full data, about 1,210 (5%) are marked active. 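Inactive calls also include excluded dsRNAs with several or no targets, genes unexpressed in JW18, and well A1, regardless of score.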 Entries without a mark were called inactive.

The opening 4 records, to show the layout:
no.	predicted target	DRSC id	Wolbachia per cell robust z, rep 1	Wolbachia per cell robust z, rep 2	Wolbachia per cell robust z, rep 3
1	CG13110 (GeneID 34253)	DRSC02208	0.193	-4.51	0.683
2	CG13847 (GeneID 42636)	DRSC23172	0.161	-0.191	-0.251
3	CG15725 (GeneID 32224)	DRSC19691	-0.324	-1.32	-0.0587
4	cry (GeneID 42305)	DRSC16928	0.756	-0.526	1.89

The list itself, from the start:
no.	predicted target	DRSC id	Wolbachia per cell robust z, rep 1	Wolbachia per cell robust z, rep 2	Wolbachia per cell robust z, rep 3
1	CG13110 (GeneID 34253)	DRSC02208	0.193	-4.51	0.683
2	CG13847 (GeneID 42636)	DRSC23172	0.161	-0.191	-0.251
3	CG15725 (GeneID 32224)	DRSC19691	-0.324	-1.32	-0.0587
4	cry (GeneID 42305)	DRSC16928	0.756	-0.526	1.89
5	cry (GeneID 42305)	DRSC40859	-1.74	-1	-0.783
6	CG15701 (GeneID 36801)	DRSC06572	0.176	-1.36	-1.43
7	Fib (GeneID 37662)	DRSC04614	-1.26 (active)	-2.19	-3.42
8	Cyp28a5 (GeneID 34817)	DRSC03297	0.96	0.428	0.234
9	Nep4 (GeneID 42449)	DRSC15539	-0.445	0.849	0.274
10	CG4036 (GeneID 34302)	DRSC02735	-0.647	0.00873	-0.775
11	Cdk8 (GeneID 39157)	DRSC11113	0.391	1.19	1.65
12	Cdk8 (GeneID 39157)	DRSC28684	-0.278	-0.181	0.68
13	Cdk8 (GeneID 39157)	DRSC41558	-1.25	0.808	1.14
14	CG18547 (GeneID 41452)	DRSC15345	0.783	-0.417	-0.0024
15	Mst84B (GeneID 40840)	DRSC12579	-1.71	0.785	0.087
16	Mst84B (GeneID 40840)	DRSC27767	-0.776	0.216	-0.755
17	Hexo1 (GeneID 38528)	DRSC08663	-1.57	-1.1	-0.138
18	CG33506 (GeneID 3346177)	DRSC05981	0.049	-1.12	0
19	Hr4 (GeneID 31162)	DRSC18599	1.52 (active)	0.376	1.76
20	Hr4 (GeneID 31162)	DRSC23080	0.203	-2.05	0.927
21	Hr4 (GeneID 31162)	DRSC23251	0.139	-0.353	-0.361
22	Hr4 (GeneID 31162)	DRSC25130	-1.21	0.645	2.23
23	Hr4 (GeneID 31162)	DRSC27857	0.372	-1.05	-0.821
24	Hr4 (GeneID 31162)	DRSC28298	0.442	0.313	-0.278
25	CG13311 (GeneID 39008)	DRSC09982	0.576	-0.0573	0.226
26	CG13311 (GeneID 39008)	DRSC41422	-0.95	-1.98	-0.191
27	Rich (GeneID 40456)	DRSC11607	-0.0345	0.846	-0.234
28	Rich (GeneID 40456)	DRSC28514	-0.0158	1.47	0.371
29	Or33a (GeneID 34601)	DRSC03386	-0.365	0.747	0.00552
30	CG5726 (GeneID 37082)	DRSC06946	-0.641	0.214	-7.17
31	CG5726 (GeneID 37082)	DRSC25145	-0.557	-0.997	-0.557
32	mtSSB (GeneID 41968)	DRSC17005	0.261	0.22	-1.33
33	AhcyL1 (GeneID 38342)	DRSC08647	1.02	0.773	0.447
34	AhcyL1 (GeneID 38342)	DRSC25573	-2.34	-5.06	-3.95
35	mRpL36 (GeneID 59151)	DRSC10337	-0.722	-2.35	2.07
36	Sfp78E (GeneID 8674005)	DRSC40534	-1.48	0.677	-0.196
37	ProtA (GeneID 34866)	DRSC03372	-1.26	-1.34	-0.363
38	CG43795 (GeneID 5740629)	DRSC04192	-0.181	0.428	-1.46
39	CG43795 (GeneID 5740629)	DRSC04193	-0.0307	-1.18	-0.495
40	CG43795 (GeneID 5740629)	DRSC04194	1.45	1.22	1.61
41	CG43795 (GeneID 5740629)	DRSC04309	1.48	1.43	1.88
42	CG43795 (GeneID 5740629)	DRSC04310	0.065	0.486	-0.87
43	CG43795 (GeneID 5740629)	DRSC04497	-0.221	0.821	-1.61
44	CG43795 (GeneID 5740629)	DRSC22826	-0.158	-0.152	-0.043
45	CG43795 (GeneID 5740629)	DRSC25149	0.493	0.0695	0.339
46	CG43795 (GeneID 5740629)	DRSC26752	0.09	-0.991	-0.561
